Compound potency records, mixed from different reports. Data source: NIAID ChemDB in PubChem.

All rows: whole-cell or culture tests; organism: HIV-1; cell line: H9; measure: EC50

a–b is a range or a potency band. ECn: concentration that inhibits the pathogen or its effect by n%. An empty or dashed field is not shown. Lines come from different laboratories, so protocols vary.

structure	strain or isolate	method	setting	value
O=C(NCCCNc1ncccn1)c1cccc(C(=O)NCCCNc2ncccn2)c1	IIIB	syncytia / ELISA	-	>50 µM
Nc1ccn([C@@H]2CS[C@H](CO)O2)c(=O)n1	-	p24	-	0.1 µM
COc1c(C)c2c(c(O)c1C/C=C(\C)CCC(=O)O)C(=O)OC2	LAV-1	RT activity	-	~0.005 µM
Nc1ncnc2c1ncn2[C@@H]1O[C@H](COC2(c3ccccc3)c3ccccc3Oc3ccccc32)[C@@H](OC2(c3ccccc3)c3ccccc3Oc3ccccc32)[C@H]1OC1CCCCO1	RF	RT activity	-	0.093 µM
COc1ccc(-c2c(C)nc3c(N4CC=CC4)cc(C)nn23)cc1OC	-	p24	-	1 µM
Nc1ccn([C@H]2CC[C@@H](CO)C2)c(=O)n1	IIIB	antigen	-	5 µM
COc1ccccc1NC(=O)c1ccccc1S(=O)(=O)c1ccc([N+](=O)[O-])cc1.C[N+](C)(C)CCO	LAI	-	-	10 µM
NC(=O)NO	-	RT activity	-	<200 µM
CCN(CC)CCNc1ccnc(NCCCNC(=O)c2cccc(C(=O)NCCCNc3nccc(NCCN(CC)CC)n3)c2)n1	IIIB	syncytia / ELISA	-	0.3 µM
C=C(C)[C@@H]1CC[C@]2(C(=O)NCCCCCCCC(=O)N[C@@H](CC(C)C)[C@@H](O)CC(=O)O)CC[C@]3(C)[C@H](CC[C@@H]4[C@@]5(C)CC[C@H](O)C(C)(C)[C@@H]5CC[C@]43C)[C@@H]12	IIIB	p24 / RT activity	-	0.03 µM
COc1ccc(-c2c(C)nc3c(N4CC[C@@H](NS(=O)(=O)c5ccc(C(C)=O)cc5)C4)cc(C)nn23)cc1OC	-	p24	-	0.2 µM
CC(S)C(=O)NCC(=O)O	-	p24 / antigen	-	400 µg/mL
O=C(O)C[C@H]1C(=O)O[C@H]2[C@H](OC(=O)c3cc(O)c(O)c(O)c3)[C@@H](OC(=O)c3cc(O)c(O)c4c3[C@H]1[C@H](O)C(=O)O4)[C@H](OC(=O)c1cc(O)c(O)c(O)c1)O[C@@H]2COC(=O)c1cc(O)c(O)c(O)c1	IIIB	p24	-	1 µg/mL
COc1cc(C[C@H]2C(=O)OC[C@@H]2Cc2ccc(OC)c(OC)c2)ccc1O	IIIB	p24	-	<0.05 µM
Nc1ncnc2c1ncn2[C@@H]1O[C@H](COP(=O)([O-])O)[C@@H](O)[C@H]1OP(=O)([O-])OC[C@H]1O[C@@H](n2cnc3c(N)ncnc32)[C@H](OP(=O)([O-])OC[C@@H]2C[C@@H](O)[C@H](n3cnc4c(N)ncnc43)O2)[C@@H]1O	IIIB	p24	-	>1 µM
Cc1cn(C2CC3C(O)C(C)C3(N=[N+]=[N-])O2)c(=O)[nH]c1=O	IIIB	p24 / antigen	-	100 µM
C=C(C)[C@@H]1CC[C@]2(C(=O)OC)CC[C@]3(C)[C@H](CC[C@@H]4[C@@]5(C)CC[C@H](NC(=O)CC(C)(C)CC(=O)O)C(C)(C)[C@@H]5CC[C@]43C)[C@@H]12	IIIB	p24 / ELISA	-	1.16 µM
O=S(=O)(Nc1ncnc2nc[nH]c12)c1ccc(F)cc1F	NL4-3	p24 / ELISA	pseudotyped	>50 µM
CCCc1cn([C@@H]2C[C@H](F)[C@@H](CO)O2)c(=O)[nH]c1=O	IIIB	antigen	-	2.5 µM
Nc1nc2c(ncn2[C@@H]2O[C@H](COS(N)(=O)=O)[C@@H](O)[C@H]2O)c(=O)o1	IIIB	RT activity	-	>30 µg/mL
CCN(CC)CCNc1ccnc(NCCCNC(=O)c2ccc(C(=O)NCCCNc3nccc(NCCN(CC)CC)n3)cc2)n1	MN	ELISA	6 d	0.05–0.15 µM
COc1ccc(-c2c(C)nc3c(N4CCN(C(=O)OC(C)(C)C)C4)cc(C)nn23)cc1OC	-	p24	-	0.9 µM
COC(=O)c1cc(OC)c(OC)c(OC)c1-c1c(C(=O)OC)cc(OC)c(OC)c1OC	IIIB	p24	-	>200 µM
Cc1cn([C@@H]2O[C@H](COC(c3ccccc3)(c3ccccc3)c3ccccc3)C3OC32)c(=O)[nH]c1=O	IIIB	antigen	-	>1000 µM
O=C(Nc1cccc2cccnc12)c1ccc(F)cc1F	NL4-3	p24 / ELISA	pseudotyped	>50 µM
CC1=CC(=O)O[C@@H]1[C@@]1(C)C[C@H]2OC(=O)CC3C(C)C(=O)C(O)=C1[C@]32CO	IIIB	p24 / ELISA	-	28 µM
CCOC(=O)c1cc(C(=O)c2ccc3ccccc3c2)n2ccc(C(=O)c3ccccc3)cc12	-	p24 / ELISA	-	36.1 µM
COc1ccc(-c2c(C)nc3c(N4CC[C@@H](OC(C)=O)C4)cc(C)nn23)cc1OC	-	p24	-	0.4 µM
O=C(O)C[C@@H]1C(=O)O[C@H]2[C@@H]3OC(=O)c4cc(O)c(O)c(O)c4-c4c(cc(O)c(O)c4O)C(=O)OC[C@H]2O[C@@H](OC(=O)c2cc(O)c(O)c(O)c2)[C@@H]3OC(=O)c2cc(O)c(O)c3c2[C@H]1[C@H](O)C(=O)O3	IIIB	p24	-	1 µg/mL
COc1cc(C[C@@]2(O)C(=O)OC[C@@H]2Cc2ccc(OC)c(OC)c2)ccc1O	IIIB	RT activity	-	<1 µM
CC(C)CN(C[C@@H](O)[C@H](Cc1ccccc1)NC(=O)O[C@H]1CCOC1)S(=O)(=O)c1ccc(N)cc1	IIIB	p24	-	0.246 µM
CCOC(=O)c1cc(C(=O)c2ccc3ccccc3c2)n2ccc(C(=O)c3ccncc3)cc12	-	p24 / ELISA	-	11 µM
Nc1ncnc2c1ncn2C1OC(COP(=O)(O)OC2C(O)C(COP(=O)(O)OC3CC(CO)OC3n3cnc4c(N)ncnc43)OC2n2cnc3c(N)ncnc32)CC1O	IIIB	p24	-	<1 µM
COc1cc(C2(C(F)(F)F)N=N2)ccc1C(=O)NCCOCCOCCNC(=O)c1cc(C(=O)c2ccc3ccccc3c2)n2ccc(C(=O)c3ccccc3)cc12	-	p24 / ELISA	-	14.9 µM
Cc1cn([C@H]2C[C@H](N=[N+]=[N-])[C@@H](CO)O2)c(=O)[nH]c1=O	IIIB	RT activity	-	0.18 µg/mL
O=S(=O)(Nc1cccc2cccnc12)c1ccccc1F	NL4-3	p24 / ELISA	pseudotyped	>50 µM
CC(=O)O[C@@H]1[C@H](OC(=O)CC(C)C)c2c(ccc3ccc(=O)oc23)OC1(C)C	IIIB	p24 / ELISA	-	1.3 µM
O=[N+]([O-])c1ccc(S(=O)(=O)Nc2cccc3cccnc23)cc1	NL4-3	p24 / ELISA	pseudotyped	>30 µM
O=C(O)CCNC(=O)CNC(=O)CNC(=O)CNC(=O)c1cc(C(=O)c2ccc3ccccc3c2)n2ccc(C(=O)c3ccccc3)cc12	-	p24 / ELISA	-	40.7 µM
C[C@@H]([C@H]1CC[C@@]2(C)C3CCC4[C@](C)(C(=O)O[C@H]5O[C@@H](CO)[C@H](O)[C@@H](O)[C@@H]5O)[C@@H](O)C[C@H](O)[C@@]45C[C@@]35CC[C@]12C)[C@@H](O)C[C@H](O)C(C)(C)O	IIIB	fluorescence	-	1.44 µM
Nc1nc2c(ncn2[C@H]2C=C[C@@H](CO)C2)c(=O)[nH]1	IIIB	RT activity	-	0.8 µM
C=C(C)[C@@H]1CC[C@]2(COC(=O)CC(C)(C)C(=O)O)CC[C@@H]3[C@H](CC[C@H]4[C@H]3CC[C@H]3C(C)(C)[C@@H](O)CC[C@]43C)[C@@H]12	-	-	-	<0.18 µM
Nc1ncnc2c1ncn2[C@H]1CC[C@@H](CO)O1	MN	p24	-	1.19 µM
Cc1cn([C@@H]2O[C@H](COC(c3ccccc3)(c3ccccc3)c3ccccc3)C[C@H]2F)c(=O)nc1N	IIIB	antigen	-	>1000 µM
S=c1nc2ccc(Cl)cc2c(NOCCN2CCOCC2)c2ccccc12	LAV	syncytia	-	0.38 µM
C=C(C)[C@@H]1CC[C@]2(C(=O)O)CC[C@]3(C)[C@H](CC[C@@H]4[C@@]5(C)CC[C@H](OC(=O)CC(C)(C)C(=O)O)C(C)(C)[C@@H]5CC[C@]43C)[C@@H]12	IIIB	p24 / ELISA	-	<0.00035 µM
COc1ccc2c(c1)N(C(=O)OC(C)C)[C@@H](CSC)C(=S)N2	MN: RS(HBY 097)	p24	-	>25 µM
Nc1ccn(C2C[C@H](CO)[C@@H](CO)C2)c(=O)n1	IIIB	RT activity	-	>10 µg/mL
COc1ccc2c(c1OC)C(CC(C)=O)N(C)c1c-2ccc2cc3c(cc12)OCO3	IIIB	p24	-	1.77 µM
COC(CC(C)C(O)/C=C/C=C/CNC(=O)C(C)(C)C(O)\C(C)=C/C=C\C=C\Cc1cnc(C)o1)C1(O)C(C)C(=O)N(C)C12C(=O)OC2C	IIIB	RT activity	-	5 µg/mL
C=C(C)[C@@H]1CC[C@]2(C(=O)O)CC[C@]3(C)[C@H](CC[C@@H]4[C@@]5(C)CC[C@H](NC(=O)COCC(=O)O)C(C)(C)[C@@H]5CC[C@]43C)[C@@H]12	IIIB	p24 / ELISA	-	>7.9 µM
NCC(=O)N1CCC[C@H]1C(=O)O	SF2	p24	-	>100 µM
CN(C)c1ncnc2c1ncn2[C@@H]1O[C@H](CO)[C@@H](N)[C@H]1O	X	RT activity	-	<2 µg/mL
COc1c(OCc2ccccc2)c(OCc2ccccc2)cc(CO)c1-c1c(CO)c(Br)c(OCc2ccccc2)c(OCc2ccccc2)c1OC	IIIB	p24	-	>100 µg/mL
NCC(=O)N1CCC[C@H]1C(=O)NCC(N)=O	IIIB	p24	-	16 µM
O=P(O)(O)OP(=O)(O)OP(=O)(O)OP(=O)(O)O	IIIB	p24	-	>100 µg/mL
COc1c(Br)c(C(=O)O)c(-c2c3c(c(OC)c(Br)c2C(=O)ONCCN2CCCC2)OCO3)c2c1OCO2	IIIB	p24	-	>100 µg/mL
Cc1cn2c(nc1=O)OC1[C@H]2O[C@H](COC(c2ccccc2)(c2ccccc2)c2ccccc2)[C@H]1OC(=S)n1ccnc1	IIIB	antigen	-	>1000 µM
COc1cc(CO)c(-c2c(CO)cc(OC)c(OC)c2OC)c(OC)c1OC	IIIB	p24	-	65 µM
CCC(O)C(N)C(=O)O	-	syncytia	-	<750 µM
CC1(C)CC[C@]2(C(=O)O)CC[C@]3(C)C(=CC[C@@H]4[C@@]5(C)CC[C@H](OC(=O)CC(C)(C)C(=O)O)C(C)(C)[C@@H]5CC[C@]43C)[C@@H]2C1	IIIB	p24 / ELISA	-	0.00086 µM
Cc1cn([C@@H]2O[C@H](COC(c3ccccc3)(c3ccccc3)c3ccccc3)[C@@H](N=[N+]=[N-])[C@@H]2O)c(=O)[nH]c1=O	IIIB	antigen	-	>1000 µM
C=C(C)[C@@H]1CC[C@]2(C(=O)OCC(=O)c3ccccc3)CC[C@]3(C)[C@H](CC[C@@H]4[C@@]5(C)CC[C@H](NC(=O)CC(C)(C)CC(=O)O)C(C)(C)[C@@H]5CC[C@]43C)[C@@H]12	IIIB	p24 / ELISA	-	4.77 µM
CCc1cn([C@@H]2C[C@H](O)[C@@H](CO)O2)c(=O)[nH]c1=O	IIIB	antigen	-	10 µM
COc1ccc(-c2c3nc(C)nc(N4CC[C@@H](NC(C)=O)C4)c3nn2C)cc1OC	-	p24	-	>100 µM
CCN(CC)CCNc1nc(NCCCCNC(=O)CCCCC(=O)NCCCCNc2nc3c(c(NCCN(CC)CC)n2)CC=CC3)nc2c1CC=CC2	IIIB	syncytia / ELISA	-	0.125 µM

The first 4 rows once more:

{"structure": "O=C(NCCCNc1ncccn1)c1cccc(C(=O)NCCCNc2ncccn2)c1", "strain or isolate": "IIIB", "method": "syncytia / ELISA", "value": ">50 µM"}
{"structure": "Nc1ccn([C@@H]2CS[C@H](CO)O2)c(=O)n1", "method": "p24", "value": "0.1 µM"}
{"structure": "COc1c(C)c2c(c(O)c1C/C=C(\\C)CCC(=O)O)C(=O)OC2", "strain or isolate": "LAV-1", "method": "RT activity", "value": "~0.005 µM"}
{"structure": "Nc1ncnc2c1ncn2[C@@H]1O[C@H](COC2(c3ccccc3)c3ccccc3Oc3ccccc32)[C@@H](OC2(c3ccccc3)c3ccccc3Oc3ccccc32)[C@H]1OC1CCCCO1", "strain or isolate": "RF", "method": "RT activity", "value": "0.093 µM"}